Measured data: PubChem BioAssay AID1259414 (Drosophila RNAi Screening Center, 2018)
The screen tested about 24,000 reagents; shown is an unselected part of those that have a named target and a result. In the full data, about 1,210 (5%) were called active. 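Inactive calls also include excluded dsRNAs with several or no targets, genes unexpressed in JW18, and well A1, regardless of score.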 Unmarked entries are inactive. A plus sign joins genes that one reagent is predicted to hit.

- Aim: 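Genome-wide screen for host control of endosymbiont load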 (primary screen)
- System: Drosophila JW18 cells infected with Wolbachia
- Reagent: long dsRNA against Drosophila genes, 0.25 µg dsRNA per well of a 384-well plate
- Timing: 5 days
- Treatment: cells persistently infected with Wolbachia before knock-down; no added drug
- Detection: 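Imaged fluorescence in situ signal for Wolbachia 23S rRNA per DAPI-counted host cell, given as a robust z-score within each plate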
- Direction: Wolbachia per cell robust z: higher = more Wolbachia per host cell than the plate typical
- Rule for the call: 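Active if absolute robust z reaches 1.5 in two or more of three replicates, leaving out multi- or no-target dsRNAs, genes unexpressed in JW18 and A1 wells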

predicted target | dsRNA | Wolbachia per cell robust z, rep 1 | Wolbachia per cell robust z, rep 2 | Wolbachia per cell robust z, rep 3
CG13875 | DRSC08345 | -1.75 | -0.17 | -0.0626
LKRSDH | DRSC03015 | 0.229 | 0.404 | 0.247
LKRSDH | DRSC24572 | 0.471 | -0.639 | 0.268
CG42699 | DRSC18076 | 0.203 | 1.45 | 0.0178
CG42699 | DRSC18341 | 1.07 | 0.798 | 1.15
CG42699 | DRSC25221 | 1.23 | -0.11 | -0.432
eIF2Bepsilon | DRSC18769 | -0.00468 | -0.0577 | -1.52
Pgant35A + asRNA:CR43463 | DRSC03557 | -0.516 | 0.278 | 0.32
Pgant35A + asRNA:CR43463 | DRSC28249 | 0.186 | 0.402 | 0.906
Idh3g | DRSC15699 | 0.655 | -1.57 | -0.000811
Idh3g | DRSC26628 | -0.0561 | -0.183 | -0.676
CG42633 | DRSC16061 | -0.45 | 0.622 | 1.02
CG42633 | DRSC41461 | 0.333 | -2.78 | 0.836
Dscam4 | DRSC08913 | -1.74 | -4.93 | -0.437
Dscam4 | DRSC10031 | 0.0269 | -0.26 | -0.277
Dscam4 | DRSC10329 | 0.242 | 0.126 | -7.55
Dscam4 | DRSC10765 | -0.862 | -0.419 | 0.4
Dscam4 | DRSC27460 | 0.669 | 0.87 | 0.47
CG42272 | DRSC08766 | 0.243 | 0.361 | -8.13
CG42272 | DRSC22502 | -1.2 | 0.418 | 0.773
CG42272 | DRSC23490 | -2.25 (active) | -2.02 | -5.37
CG42272 | DRSC27670 | 0.522 | 0.0276 | 0.352
mgr | DRSC16099 | 0.777 | 0.875 | 0.692
TwdlV | DRSC24972 | -0.444 | -0.296 | -0.999
Chmp1 | DRSC10401 | -0.0163 | 0.502 | 0.79
Chmp1 | DRSC25878 | -1.75 | 0.0048 | -1.37
Chmp1 | DRSC39060 | 1.01 | 1.04 | 1.22
CG14568 | DRSC11729 | 1.23 | -0.816 | 0.597
AttC | DRSC06886 | -0.465 | -4.54 | -0.977
AttC | DRSC26453 | -0.676 | 0.572 | -1.05
mRpS18B | DRSC02107 | 2.04 | 0.856 | 0.21
CCT8 | DRSC07130 | 1.53 | 1.24 | 1
CCT8 | DRSC27213 | 0.911 | 0.437 | 0.887
PIP4K | DRSC17213 | 0.626 | -6.44 | -0.0595
Pepck1 | DRSC07505 | -0.0798 | 0.251 | -0.675
Pepck1 | DRSC26468 | -0.0243 | -1.21 | -1.41
Spn38F | DRSC03616 | 2.17 | -0.665 | 0.858
Spn38F | DRSC24629 | -0.865 | 0.193 | -0.0917
Spn38F | DRSC40870 | 1.11 | 0.383 | 0.856
pHCl-2 | DRSC14306 | -3.97 | -2.74 | -5.42
e(y)2 | DRSC19640 | -0.172 | -0.444 | -2.69
xmas | DRSC21306 | -0.227 | -1.73 | -0.197
xmas | DRSC22178 | 0.532 | 0.593 | -0.078
Ste:CG33241 + Ste12DOR + Ste:CG33245 + 10 more | DRSC26515 | -2.92 | -0.351 | -1.21
CR32733 | DRSC17481 | 0.264 | 0.661 | 0.42
CR32733 | DRSC28689 | -0.505 | 0.234 | -0.166
